Pooled drug test results. Numbers come from NIAID ChemDB, via PubChem.

Common to all: toxicity to cultured cells; cells: MT-4; measure: CC50

Conditions beyond the fields shown may differ between rows. Blank or dashed fields: not listed here. CCn: concentration that lowers growth or viability of the cells by n%.

structure,read by,value
Cc1ccnc(N2C(=O)CSC2c2c(F)cccc2F)n1,-,>406.7 µM
CCCCCCCCCCCCOC(=O)c1cc(O)c(O)c(O)c1,-,1.3 µg/mL
Cc1c(C(C)(O)c2ccc(Cl)cc2)n(COCc2ccccc2)c(=O)[nH]c1=O,MTT,89.07 µM
CCc1c(Cc2cccc(Cc3nc(SC(C)C)[nH]c(=O)c3CC)c2)nc(SC(C)C)nc1OC(C)C,MTT,43 µM
Cc1ccnc2c1NC(=O)c1cccnc1N2C1CC1,XTT,>1000 µM
Cc1cc(C#N)cc(C)c1Oc1nc(NC2CCN(S(=O)(=O)c3ccc(-c4ccccc4)cc3)CC2)nc2ccsc12,MTT,>209.8 µM
COc1cccc(OC)c1C1SCC(=O)N1c1nccc(C)n1,-,231.2 µM
Cn1cccc1CN1C(=O)CSC1c1c(F)cccc1F,-,146 µM
N#Cc1ccc(Nc2nc(Oc3c(Br)cc(Br)cc3Br)ncc2N)cc1,MTT,37 µM
CSCC[C@H](C)OC(=O)[C@@H](NC(=O)Cc1c[nH]c2ccccc12)c1ccccc1-c1c[nH]c2ccccc12,MTT,12 µM
Nc1ncnc2c1ncn2[C@H]1C[C@@H](CO)O1,-,>10 µg/mL
Nc1ncnc2c1ncn2C[C@H](CF)OCP(=O)(O)O,-,>300 µM
CCc1c(Cc2cccc(Cc3[nH]c(=O)[nH]c(=O)c3CC)c2)[nH]c(=O)[nH]c1=O,MTT,>100 µM
CCCc1c(SCC2CCC2)c2cc(F)ccc2[nH]c1=O,-,29.7 µM
Cc1cc(C#N)cc(C)c1Oc1nc(Nc2ccc(NS(=O)(=O)c3ccc([N+](=O)[O-])cc3)cc2)nc2ccsc12,MTT,91.4 µM
NC[C@@H]1C[C@H](N)[C@H](n2cnc3c(N)ncnc32)O1,trypan blue,>500 µg/mL
CCc1c(Cc2cccc(Cc3[nH]c(=S)[nH]c(=O)c3CC)c2)[nH]c(=S)[nH]c1=O,MTT,>100 µM
COc1cc2nc(S(=O)CC(=O)Nc3ccc(F)cc3)nc(Nc3c(C)cc(/C=C/C#N)cc3C)c2cc1OC,MTT,27.4 µM
COc1ccccc1C(C)c1c(C)c(=O)[nH]c(=O)n1COCc1ccccc1,MTT,>329 µM
O=C(O)C[C@H]1C(=O)O[C@H]2[C@H](OC(=O)c3cc(O)c(O)c(O)c3)[C@@H](OC(=O)c3cc(O)c(O)c4c3[C@H]1[C@H](O)C(=O)O4)[C@H](OC(=O)c1cc(O)c(O)c(O)c1)O[C@@H]2COC(=O)c1cc(O)c(O)c(O)c1,-,19.5 µg/mL
Nc1nc(=O)n([C@H]2CC[C@@H](CO)O2)cc1F,-,>436 µM
CCNc1nc(Nc2ccc(C#N)cc2F)nc(Oc2ccc3ccccc3c2Cl)n1,-,>270 µM
Nc1ncc2ncn(C[C@@H](CF)OCP(=O)(O)O)c2n1,-,>300 µM
O=C[C@H](OC(=O)c1cc(O)c(O)c(O)c1)[C@@H](OC(=O)c1cc(O)c(O)c(O)c1)[C@@H]1OC(=O)c2cc(O)c(O)c(O)c2-c2c(cc(O)c(O)c2O)C(=O)OC[C@H]1O,-,22.9 µg/mL
C=CNc1nc(Nc2ccc(C#N)cc2F)nc(Oc2ccc3ccccc3c2)n1,-,229 µM
COc1ccc(CCN2C(=O)/C(=C\c3ccccc3Cl)N(CCc3ccc(OC)c(OC)c3)C2=S)cc1OC,MTT,23.1 µg/mL
CC(=O)Nc1cnc(Oc2c(C)cc(C#N)cc2C)nc1Nc1ccc(C#N)cc1,MTT,>313 µM
Cc1c(Sc2ccccc2)n(C/C=C/c2ccc([N+](=O)[O-])s2)c(=O)[nH]c1=O,-,>1 µM
Cc1cc(C#N)cc(C)c1Oc1nc(Nc2ccc(NS(=O)(=O)c3ccc4oc(=O)ccc4c3)cc2)nc2ccsc12,MTT,>209.8 µM
Cc1c(Sc2ccccc2)n(COCCNC(=O)CCP(=O)(O)O)c(=O)[nH]c1=O,-,>1 µM
CCC(O)(c1ccccc1OC)c1c(C)c(=O)[nH]c(=O)n1COCc1ccccc1,MTT,90.34 µM
CCCC[C@H](C)OC(=O)[C@@H](N)c1ccccc1-c1c[nH]c2ccccc12,MTT,17 µM
CCc1c(OC#CC2CC2)c2cc(F)ccc2[nH]c1=O,-,13.3 µM
CCc1c(Cc2cccc(Cc3nc(N(C)C)[nH]c(=O)c3CC)c2)nc(N(C)C)[nH]c1=O,MTT,>100 µM
COc1cccc(OC)c1C1SCC(=O)N1c1cc(C)ccn1,-,249 µM
O=CC(O)C(OC(=O)c1cc(O)c(O)c(O)c1)C1OC(=O)c2cc(O)c(O)c(O)c2-c2c(cc(O)c(O)c2O)C(=O)OCC1O,-,26.7 µg/mL
Nc1nc(=O)n([C@@H]2CC[C@H](CO)O2)cc1F,-,>436 µM
Cc1c(C(C)(O)c2cccc(F)c2)n(COCc2ccccc2)c(=O)[nH]c1=O,MTT,186 µM
CC(C)Nc1nc(Nc2ccc(C#N)cc2F)nc(Oc2ccc3ccccc3c2Br)n1,-,>254 µM
CCCc1c(OCC2CCC2)c2cc(F)ccc2[nH]c1=O,-,47.2 µM
Cc1cn([C@H]2C[C@H](N=[N+]=[N-])[C@@H](CO)O2)c(=O)[nH]c1=O,MTT,67 µM
Cc1cc(C#N)cc(C)c1Oc1nc(Nc2ccc(C#N)cc2)ncc1C#CC(=O)NCCN1CCN(S(C)(=O)=O)CC1,MTT,4.89 µM
Cc1cc(C#N)cc(C)c1Oc1nc(Nc2ccc(NS(=O)(=O)c3ccc(C#N)cc3)cc2)nc2ccsc12,MTT,46.73 µM
Cc1c(Sc2ccccc2)n(C/C=C/c2cccs2)c(=O)[nH]c1=O,-,>1 µM
CCC(O)(c1ccc(C)cc1)c1c(C)c(=O)[nH]c(=O)n1COCc1ccccc1,MTT,6.82 µM
CCc1c(Cc2cccc(Cc3nc(SC)nc(OC)c3CC)c2)nc(SC)nc1OC,MTT,>100 µM
C=C(c1ccccc1)c1c(C)c(=O)[nH]c(=O)n1COCc1ccccc1,MTT,133 µM
NC[C@H]1O[C@@H](n2cnc3c(N)ncnc32)C[C@H]1O,trypan blue,>500 µg/mL
O=C(O[C@@H]1Cc2c(O)cc(O)cc2O[C@@H]1c1cc(O)c(O)c(O)c1)c1cc(O)c(O)c(O)c1,-,16.7 µg/mL
COc1ccc(CCN2C(=O)/C(=C\c3cccc(Oc4ccccc4)c3)N(CCc3ccc(OC)c(OC)c3)C2=S)cc1OC,MTT,37.8 µg/mL
COc1cc2nc(S(=O)CC(=O)Nc3ccc(C)cc3)nc(Nc3c(Cl)cc(/C=C/C#N)cc3Cl)c2cc1OC,MTT,32.2 µM
O=C1Nc2ccc(Cl)cc2[C@@](C#CC2CC2)(C(F)(F)F)O1,MTT,>6.34 µM
CCC(CCSC)OC(=O)[C@@H](N)c1ccccc1-c1c[nH]c2ccccc12,MTT,34 µM
Nc1ncnc2c1ncn2C[C@@H](CO)OCP(=O)(O)O,-,26 µM
COc1cccc(F)c1C1SCC(=O)N1c1cc(C)ccn1,-,≥220 µM
Nc1nc2c(ncn2C[C@H](CF)OCP(=O)(O)O)c(=O)[nH]1,-,>300 µM
COc1cccc(NC(=O)CS(=O)c2nc(Nc3c(Cl)cc(/C=C/C#N)cc3Cl)c3cc(OC)c(OC)cc3n2)c1,MTT,>167 µM
Cc1cc(C)c(Oc2ncc(NC(=O)C(F)(F)F)c(Nc3ccc(C#N)cc3)n2)c(C)c1,MTT,242 µM
O=C1CSC(c2c(F)cccc2F)N1Cc1ccccn1,-,302 µM
CCC(C)c1c(OC2CCCC2)c2cc(Cl)ccc2[nH]c1=O,-,26.3 µM
Cc1cc(C)c(Oc2ncc(N)c(Nc3ccc(C#N)cc3)n2)c(C)c1,MTT,10 µM
Cc1c(Sc2ccccn2)n(COCCSc2ccccn2)c(=O)[nH]c1=O,-,>1 µM
Cc1ccc(C(C)c2c(C)c(=O)[nH]c(=O)n2COCc2ccccc2)cc1,MTT,>343 µM
Nc1nc(N)c2ncn(C[C@@H](CF)OCP(=O)(O)O)c2n1,-,>300 µM
COc1ccc(CCN2C(=O)/C(=C\c3ccc(N(C)C)cc3)N(CCc3ccc(OC)c(OC)c3)C2=S)cc1OC,MTT,17.7 µg/mL
Cc1ccnc2c1NC(=O)c1cccnc1N2C1CC1,MTT,>15.02 µM
Cc1ccc(CN2C(=O)CSC2c2c(F)cccc2Cl)o1,-,46.9 µM
COc1cc2nc(S(=O)CC(=O)Nc3cccc(Cl)c3)nc(Nc3c(Cl)cc(/C=C/C#N)cc3Cl)c2cc1OC,MTT,68.9 µM
O=C(OC1OC2COC(=O)c3cc(Oc4c(C(=O)OC5OC6COC(=O)c7cc(O)c(O)c(O)c7-c7c(cc(O)c(O)c7O)C(=O)OC6C(OC(=O)c6cc(O)c(O)c(O)c6)C5OC(=O)c5cc(O)c(O)c(O)c5)cc(O)c(O)c4O)c(O)c(O)c3-c3c(cc(O)c(O)c3O)C(=O)OC(C2O)C1O)c1cc(O)c(O)c(O)c1,-,33.5 µg/mL
CCc1c(Cc2cccc(Cc3nc(SC)[nH]c(=O)c3CC)c2)nc(SC)[nH]c1=O,MTT,>100 µM
Nc1ncn([C@H]2CC[C@H](CO)O2)c(=O)n1,-,>471 µM
CCCc1c(OCC2CCC2)c2cc(Cl)ccc2[nH]c1=O,-,24 µM
O=c1[nH]cnc2c1ncn2[C@H]1C[C@@H](CO)O1,-,>100 µg/mL
C[C@@H](Cn1cnc2c(N)nc(N)nc21)OCP(=O)(O)O,-,>300 µM
CCC(C)C#COc1c(C(C)C)c(=O)[nH]c2ccc(F)cc12,-,66.7 µM
Nc1ncnc2c1ncn2[C@@H]1O[C@H](CO)[C@@H]1O,-,>100 µg/mL
Cc1cc(C=O)cc(C)c1Oc1ncc([N+](=O)[O-])c(Nc2ccc(C#N)cc2)n1,MTT,37 µM
Cc1cc(C#N)cc(C)c1Oc1nc(Nc2ccc(C#N)cc2)ncc1C#CC(=O)NCCN1CCN(C(=O)OC(C)(C)C)CC1,MTT,22.4 µM
CCNc1nc(Nc2ccc(C#N)cc2F)nc(Oc2ccc3ccccc3c2)n1,-,222 µM
Nc1ncnc2c1ncn2C[C@@H](CF)OCP(=O)(O)O,-,>300 µM
Nc1ncn([C@@H]2CC[C@H](CO)O2)c(=O)n1,-,>471 µM
CC(C)c1c(OC#CC2CC2)c2cc(Cl)ccc2[nH]c1=O,-,16 µM
NC[C@@H]1C[C@@H](N)[C@H](n2cnc3c(N)ncnc32)O1,trypan blue,>500 µg/mL
Nc1nc(N)c2ncn(C[C@H](CO)OCP(=O)(O)O)c2n1,-,>300 µM
[N-]=[N+]=N[C@H]1[C@H](n2cnc3c(N)ncnc32)O[C@@H]1CO,-,>100 µg/mL
Cc1cc(C#N)cc(C)c1Oc1nc(NC2CCN(S(=O)(=O)c3ccc4oc(=O)ccc4c3)CC2)nc2ccsc12,MTT,56.92 µM
O=C(O)c1cc(O)c(O)c(Oc2c(C(=O)OC3C(OC(=O)c4cc(O)c(O)c(O)c4)OC4COC(=O)c5cc(O)c(O)c(O)c5-c5c(cc(O)c(O)c5O)C(=O)OC4C3OC(=O)c3cc(O)c(O)c(O)c3)cc(O)c(O)c2O)c1,-,28.2 µg/mL
Cc1cc(C#N)cc(C)c1Oc1nc(Nc2ccc(C#N)cc2)ncc1C#CC(=O)NCCOCCO,MTT,9.38 µM
COc1ccc(CCN2C(=O)/C(=C\c3ccccc3)N(CCc3ccc(OC)c(OC)c3)C2=S)cc1OC,MTT,62.95 µg/mL
O=C(O[C@@H]1O[C@@H]2COC(=O)c3cc(O)c(O)c(O)c3-c3c(cc(O)c(O)c3O)C(=O)O[C@H]2[C@H](OC(=O)c2cc(O)c(O)c(O)c2)[C@H]1OC(=O)c1cc(O)c(O)c(O)c1)c1cc(O)c(O)c(Oc2c(C(=O)O[C@H]3[C@H](OC(=O)c4cc(O)c(O)c(O)c4)O[C@@H]4COC(=O)c5cc(O)c(O)c(O)c5-c5c(cc(O)c(O)c5O)C(=O)O[C@H]4[C@@H]3OC(=O)c3cc(O)c(O)c(O)c3)cc(O)c(O)c2O)c1,-,56.8 µg/mL
Nc1ncnc2c1ncn2[C@H]1C[C@@H](N)[C@@H](CO)O1,trypan blue,>500 µg/mL
COc1ccc(CCN2C(=O)/C(=C\c3ccccc3-c3ccco3)N(CCc3ccc(OC)c(OC)c3)C2=S)cc1OC,MTT,17.3 µg/mL
Nc1ncc2ncn(C[C@H](CF)OCP(=O)(O)O)c2n1,-,>300 µM
CSCC[C@H](OC(=O)[C@@H](N)c1ccccc1-c1c[nH]c2ccccc12)c1ccccc1,MTT,20 µM

The last 6 rows once more:

COc1ccc(CCN2C(=O)/C(=C\c3ccccc3)N(CCc3ccc(OC)c(OC)c3)C2=S)cc1OC ; read by: MTT ; value: 62.95 µg/mL
O=C(O[C@@H]1O[C@@H]2COC(=O)c3cc(O)c(O)c(O)c3-c3c(cc(O)c(O)c3O)C(=O)O[C@H]2[C@H](OC(=O)c2cc(O)c(O)c(O)c2)[C@H]1OC(=O)c1cc(O)c(O)c(O)c1)c1cc(O)c(O)c(Oc2c(C(=O)O[C@H]3[C@H](OC(=O)c4cc(O)c(O)c(O)c4)O[C@@H]4COC(=O)c5cc(O)c(O)c(O)c5-c5c(cc(O)c(O)c5O)C(=O)O[C@H]4[C@@H]3OC(=O)c3cc(O)c(O)c(O)c3)cc(O)c(O)c2O)c1 ; value: 56.8 µg/mL
Nc1ncnc2c1ncn2[C@H]1C[C@@H](N)[C@@H](CO)O1 ; read by: trypan blue ; value: >500 µg/mL
COc1ccc(CCN2C(=O)/C(=C\c3ccccc3-c3ccco3)N(CCc3ccc(OC)c(OC)c3)C2=S)cc1OC ; read by: MTT ; value: 17.3 µg/mL
Nc1ncc2ncn(C[C@H](CF)OCP(=O)(O)O)c2n1 ; value: >300 µM
CSCC[C@H](OC(=O)[C@@H](N)c1ccccc1-c1c[nH]c2ccccc12)c1ccccc1 ; read by: MTT ; value: 20 µM